Results of unrelated studies side by side (data: NIAID ChemDB).

All rows: host cell toxicity; cells: HFF; method: neutral red; read-out: CC50

CCn: concentration that lowers growth or viability of the cells by n%. Conditions beyond the fields shown may differ between rows.

SMILES	value
Nc1nc2c(ncn2/C=C2\CC2[C@@H](O)CO)c(=O)[nH]1	>300 µM
Cn1cc(C(=O)NCc2ccc(Cl)cc2)c(=O)c2cc(CN3CCOCC3)ccc21	>24 µM
CCCCSc1nc(N)nc2c1ncn2/C=C1/C[C@@H]1CO	>300 µM
Nc1nc2c(ncn2C=C2CC2CO)c(=O)[nH]1	>430 µM
Nc1nc2c(ncn2/C=C2/CC2[C@@H](O)CO)c(=O)[nH]1	>300 µM
CCCCCCCCCCCCCCCCCCOCCCOP1(=O)CO[C@@H](Cn2ccc(N)nc2=O)CO1	77 µM
Nc1nc2c(ncn2/C=C2\CC2(CO)COP(=O)(O)O)c(=O)[nH]1	>392 µM
CCCCCCCCCCCCCCCCCCOC[C@H](COP(=O)(O)CO[C@H](CO)Cn1ccc(N)nc1=O)OCc1ccccc1	47 µM
Nc1nc(N)c2ncn(C=C3CC3CO)c2n1	>431 µM
CCCCCCCCCCCCCCCCCCCCOCCCOP(=O)(O)CO[C@H](CO)Cn1ccc(N)nc1=O	90.6 µM
Nc1nc(F)c2ncn(/C=C3/CC3(CO)CO)c2n1	>377 µM
Nc1ncnc2c1ncn2/C=C1/CC1(CO)CO	>380 µM
COC(=O)[C@H](C)NP(=O)(OCC1C/C1=C/n1cnc2c(NC3CC3)nc(N)nc21)Oc1ccccc1	126 µM
CSc1nc(N)nc2c1ncn2/C=C1/C[C@@H]1CO	>300 µM
COc1nc(N)nc2c1ncn2C=C1CC1CO	>404 µM
Nc1nc2c(ncn2COCCO)c(=O)[nH]1	>100 µg/mL
CC(C)=CCc1ccc(O)c(=O)cc1C(C)C	6.7 µM
Nc1nc2c(ncn2COCCO)c(=O)[nH]1	>405 µM
Nc1ncnc2c1ncn2/C=C1/C[C@@H]1CO	180 µM
C=C(C)[C@@H]1CCc2c(O)c(O)c(=O)cc(C)c2C1	6.7 µM
CC(C)Nc1nc2cc(Cl)c(Cl)cc2n1[C@H]1O[C@@H](CO)[C@H](O)[C@@H]1O	243 µM
Nc1ncnc2c1ncn2C=C1CC1CO	>460 µM
Nc1ncnc2c1ncn2C=C1CC1CO	>459 µM
C=CCOc1nc(N)nc2c1ncn2/C=C1/C[C@@H]1CO	>300 µM
CCCCCCCCCCCCCCCCOCCCOP1(=O)CO[C@@H](Cn2ccc(N)nc2=O)CO1	>100 µM
Nc1ncnc2c1ncn2/C=C1/C[C@H]1CO	>462 µM
O=C(NCc1ccc(Cl)cc1)c1cn2c(CCO)cc3cc(CN4CCOCC4)cc(c1=O)c32	15 µM
CC(=O)NC(CCc1ccc(Cl)c(Cl)c1)c1cccc(O)c(=O)c1	8 µM
CCCCCCCC/C=C\CCCCCCCCOCCOP(=O)(O)CO[C@H](CO)Cn1ccc(N)nc1=O	56 µM

3 of the rows above, restated:

SMILES,value
CCCCSc1nc(N)nc2c1ncn2/C=C1/C[C@@H]1CO,>300 µM
CC(C)Nc1nc2cc(Cl)c(Cl)cc2n1[C@H]1O[C@@H](CO)[C@H](O)[C@@H]1O,243 µM
CCCCCCCCCCCCCCCCCCOCCCOP1(=O)CO[C@@H](Cn2ccc(N)nc2=O)CO1,77 µM